Measured values from several laboratories, pooled; numbers as filed in NIAID ChemDB.

All rows: whole-cell or culture tests; organism: HIV-1; read-out: EC50

An empty or dashed field is not shown. ECn is the concentration giving n% inhibition of infection, replication or growth. Conditions beyond the fields shown may differ between rows.

structure | method | strain | mutations | cells | result
CC(C)C1=C2[C@H]3CC[C@@H]4[C@@]5(C)CC[C@H](OC(=O)[C@H]6C[C@@H](C(=O)O)C6(C)C)C(C)(C)[C@@H]5CC[C@@]4(C)[C@]3(C)CC[C@@]2([C@@H](O)CNCC2(NC(=O)c3ccc(Cl)cc3)CCC2)CC1=O | p24 / ELISA | 92HT599 |  | MT-2 | <1 µM
Cc1occc1C(=S)Nc1ccc(Cl)c(/C=N/OC(C)(C)C)c1 | cytopathic effect / XTT | 4xAZT(RT-D67N K70R T215Y K219Q) | RT-D67N K70R T215Y K219Q | CEM + CEM-SS | 0.04 µM
C=CCOCn1c(Cc2cccc(Cc3c(CC)c(=O)[nH]c(=O)n3COCC=C)c2)c(CC)c(=O)[nH]c1=O | cytopathic effect / MTT | RT-K103N+Y181C NNRTI-resistant | RT-K103N Y181C | MT-4 | >100 µM
O=c1[nH]c(=O)n([C@@H]2C[C@@H](F)[C@H](CO)O2)cc1Cl | RT activity | LAV |  | PBM | >100 µM
CCc1c(Cc2cccc(Cc3nc(SC)n(C)c(=O)c3CC)c2)nc(SC)nc1OC | cytopathic effect / MTT |  |  | MT-4 | >80 µM
CCn1cc(C(=O)O)c(=O)c2cc(F)c(N3CCN(c4ccccc4OC)CC3)c(OC(F)F)c21 | p24 | IIIB |  | PBMC | 0.6 µM
O=c1[nH]cnc2c1ncn2[C@@H]1C[C@@H](F)[C@H](CO)O1 | RT activity | LAV |  | PBM | >100 µM
CC(C)OC(=S)Nc1ccc(Cl)c(/C=N/OC(C)(C)C)c1 | cytopathic effect / XTT | RF |  | CEM + CEM-SS | 0.008 µM
CCCCCCCCCCCCCCCCOCCCOP(=O)(O)CO[C@H](CO)Cn1cnc2c(N)ncnc21 | p24 |  | RT-K103N | MT-2 | 0.02 µM
COc1ccccc1N1C(=O)S/C(=C\c2ccc(-c3cccc(C(=O)O)c3)o2)C1=O | p24 | IIIB |  | MT-2 | 0.5453 µM
C=CCOCn1c(Cc2cc(C(F)(F)F)cc(C(F)(F)F)c2)c(CC)c(=O)[nH]c1=O | MTT | EFV-resistant (K103R V179D P225H) |  | MT-4 | >100 µM
CC(C)C1=C2[C@H]3CC[C@@H]4[C@@]5(C)CC[C@H](OC(=O)[C@H]6C[C@@H](C(=O)O)C6(C)C)C(C)(C)[C@@H]5CC[C@@]4(C)[C@]3(C)CC[C@@]2([C@@H](O)CNC(=O)c2cccnc2)CC1=O | p24 / ELISA | 92HT599 |  | MT-2 | <1 µM
CCc1c(C(=O)c2cccc(C#N)c2)n(Cc2cccc(C#N)c2)c(=O)[nH]c1=O | MTT | IIIB |  | MT-4 | 0.2 µM
O=C(O)c1cc(-c2ccc(/C=C3\SC(=S)N(c4cccc([N+](=O)[O-])c4)C3=O)o2)ccc1Cl | p24 | IIIB |  | MT-2 | 0.943 µM
CC(C)=CCOc1cc(NC(=S)c2ccoc2C)ccc1Cl | syncytia | IIIB | RT-V179D | CEM | 0.003 µg/mL
C=C(C)COCn1c(Cc2c(F)c(F)cc(F)c2F)c(CC)c(=O)[nH]c1=O | MTT | N119 (Y181C) |  | MT-4 | >38 µM
Cc1cn([C@H]2C=C[C@@H](CO)O2)c(=O)[nH]c1=O |  |  |  | MT-4 | 0.28 µM
COc1ccc(C)cc1CS(=O)(=O)c1cccc[n+]1[O-] | syncytia | IIIB |  | CEM | 5.9 µg/mL
CCOCn1c(Cc2ccccc2)c(C(C)C)c(=O)[nH]c1=O | MTT | EFV-resistant (K103R V179D P225H) |  | MT-4 | >100 µM
Cc1cccc(CS(=O)(=O)c2cccc[n+]2[O-])c1 | syncytia | IIIB | RT-E103K | CEM | ≥20 µg/mL
CCc1c(Cc2cccc(Cc3nc(SC(C)C)[nH]c(=O)c3CC)c2)nc(SC(C)C)nc1OC(C)C | cytopathic effect / MTT | RT-K103N+Y181C NNRTI-resistant | RT-K103N Y181C | MT-4 | >43 µM
COc1cnc(-n2cnc(C)n2)c2[nH]cc(C(=O)C(=O)N3CCN(C(=O)c4ccccc4)CC3)c12 | luciferase | NL4-3 |  | U-87 | 0.0024 µM
CCc1c(Cc2cccc(Cc3nc(SC)nc(OC)c3CC)c2)nc(SC)nc1OC | cytopathic effect / MTT |  |  | MT-4 | 41 µM
Cc1occc1C(=S)Nc1ccc(Cl)c(C(=O)OC(C)C)c1 | cytopathic effect / XTT | NL4-3 | RT-V106A | CEM + CEM-SS | 0.6 µM
COc1ccccc1N1C(=O)/C(=C/c2ccc(-c3cccc(C(=O)O)c3)o2)SC1=S | cytopathic effect | IIIB |  | MT-2 | 2.65 µM
CCOCn1c(C(=O)c2cccc(C#N)c2)c(CC)c(=O)[nH]c1=O | MTT | IIIB | K103N + Y181C | MT-4 | 67 µM
CCc1c(Cc2cccc(Cc3[nH]c(=S)[nH]c(=O)c3CC)c2)[nH]c(=S)[nH]c1=O | cytopathic effect / MTT |  |  | MT-4 | >100 µM
Cc1ccc(C)c(C(C)S(=O)(=O)c2ccc(C)c[n+]2[O-])c1 | syncytia | MN |  | CEM | 60 µg/mL
CC(C)C1=C2[C@H]3CC[C@@H]4[C@@]5(C)CC[C@H](OC(=O)[C@H]6C[C@@H](C(=O)O)C6(C)C)C(C)(C)[C@@H]5CC[C@@]4(C)[C@]3(C)CC[C@@]2(CC(=O)NCC(C)(C)NC(=O)c2nc3ccccc3[nH]2)CC1=O | p24 / ELISA | 92HT599 |  | MT-2 | <1 µM
Cc1ccc(C)c(CS(=O)(=O)c2ccccn2)c1 | syncytia | IIIB |  | CEM | 4 µg/mL
Cc1cn([C@H]2C[C@H](N=[N+]=[N-])[C@@H](CO)O2)c(=O)[nH]c1=O | p24 | RF |  | C8166 | 0.00648 µg/mL
Cc1c(C(=O)O)cccc1-c1ccc(/C=C2\SC(=S)N(c3cccc(C(F)(F)F)c3)C2=O)o1 | cytopathic effect | IIIB |  | MT-2 | 1.571 µM
Cc1ccc(C)c(C(C)S(=O)(=O)c2c(C)ccc[n+]2[O-])c1 | syncytia | MN |  | CEM | 1.4 µg/mL
CCc1c(Cc2cccc(Cc3[nH]c(=O)[nH]c(=O)c3CC)c2)[nH]c(=O)[nH]c1=O | cytopathic effect / MTT | RT-K103N+Y181C NNRTI-resistant | RT-K103N Y181C | MT-4 | >100 µM
CC(C)C1=C2[C@H]3CC[C@@H]4[C@@]5(C)CC[C@H](OC(=O)[C@H]6C[C@@H](C(=O)O)C6(C)C)C(C)(C)[C@@H]5CC[C@@]4(C)[C@]3(C)CC[C@@]2(CC(=O)NCC(C)(CN)NC(=O)c2ccc(Cl)cc2)CC1=O | p24 / ELISA | 92HT599 |  | MT-2 | <1 µM
Cc1ccc(N2C(=O)/C(=C/c3ccc(-c4ccc(Cl)c(C(=O)O)c4)o3)SC2=S)c(C)c1 | cytopathic effect | IIIB |  | MT-2 | 0.66 µM
C=CCOCn1c(C(F)c2cccc(C#N)c2)c(CC)c(=O)[nH]c1=O | MTT | IIIB | K103N + Y181C | MT-4 | 20 µM
Cc1occc1C(=S)Nc1ccc(Cl)c(C(=O)OC(C(C)C)C(C)C)c1 | cytopathic effect / XTT | RF |  | CEM + CEM-SS | 0.032 µM
CC(C)C1=C2[C@H]3CC[C@@H]4[C@@]5(C)CC[C@H](OC(=O)[C@H]6C[C@@H](C(=O)O)C6(C)C)C(C)(C)[C@@H]5CC[C@@]4(C)[C@]3(C)CC[C@@]2([C@@H](O)CNCc2ccc(N3CCC(O)CC3)cc2)CC1=O | p24 / ELISA | 92HT599 |  | MT-2 | <1 µM
C=CCO/N=C/c1cc(NC(=S)c2ccoc2C)ccc1Cl | cytopathic effect / XTT | NL4-3 |  | CEM + CEM-SS | 0.007 µM
CCN1c2ncc(CCOc3cccc4c3ccc[n+]4[O-])cc2C(=O)N(C)c2ccc(Cl)nc21 | p24 | IIIB |  | C8166 | 0.0004 µM
C=CCOCn1c(Cc2cc(F)ccc2F)c(CC)c(=O)[nH]c1=O | MTT | A17 | K103N + Y181C | MT-4 | 14 µM
Cc1occc1C(=S)Nc1ccc(Cl)c(C(=O)OCC2CC2)c1 | cytopathic effect / XTT | NL4-3 | RT-Y181C | CEM + CEM-SS | 0.2 µM
CCCCCCCC/C=C\CCCCCCCOCCCOP(=O)(O)CO[C@H](CO)Cn1cnc2c(N)ncnc21 | p24 | LAI | RT | MT-2 | 0.107 µM
CC(=O)COc1cc(NC(=S)OC(C)C)ccc1Cl | cytopathic effect / XTT | IIIB |  | CEM + CEM-SS | 0.5 µM
Cc1cn([C@@H]2C[C@@H](F)[C@H](CO)O2)c(=O)[nH]c1=O | RT activity | LAV |  | PBMC | >100 µM
CC(C)C1=C2[C@H]3CC[C@@H]4[C@@]5(C)CC[C@H](OC(=O)[C@H]6C[C@@H](C(=O)O)C6(C)C)C(C)(C)[C@@H]5CC[C@@]4(C)[C@]3(C)CC[C@@]2(CCNCC(C)(C)NC(=O)c2ncccn2)CC1=O | p24 / ELISA | 92HT599 |  | MT-2 | <1 µM
CC=CCOc1cc(NC(=S)c2ccoc2C)ccc1OC | cytopathic effect / XTT | NL4-3 | RT-A98G | CEM + CEM-SS | 0.03 µM

For reference, 5 entries again:

CCc1c(Cc2cccc(Cc3nc(SC)n(C)c(=O)c3CC)c2)nc(SC)nc1OC ; method: cytopathic effect / MTT ; cells: MT-4 ; result: >80 µM
Cc1occc1C(=S)Nc1ccc(Cl)c(C(=O)OCC2CC2)c1 ; method: cytopathic effect / XTT ; strain: NL4-3 ; mutations: RT-Y181C ; cells: CEM + CEM-SS ; result: 0.2 µM
CCN1c2ncc(CCOc3cccc4c3ccc[n+]4[O-])cc2C(=O)N(C)c2ccc(Cl)nc21 ; method: p24 ; strain: IIIB ; cells: C8166 ; result: 0.0004 µM
Cc1occc1C(=S)Nc1ccc(Cl)c(C(=O)OC(C(C)C)C(C)C)c1 ; method: cytopathic effect / XTT ; strain: RF ; cells: CEM + CEM-SS ; result: 0.032 µM
CCn1cc(C(=O)O)c(=O)c2cc(F)c(N3CCN(c4ccccc4OC)CC3)c(OC(F)F)c21 ; method: p24 ; strain: IIIB ; cells: PBMC ; result: 0.6 µM